# Laboratory results: PubChem BioAssay AID624099 (ICCB-Longwood, 2012)
# Test: 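Knock-downs relieving repression by E2 of an HPV18 LCR luciferase reporter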 (primary screen)
# Cell system: human C33A cervical carcinoma cells (HPV-negative) stably expressing BPV1 E2 and an HPV18 LCR luciferase reporter
# Reagent: siRNA pool against human genes, 40 nM
# Duration: 72 h
# Measurement: 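HPV18 LCR reporter light per well, converted to plate-wise z-scores that exclude control wells, and averaged over triplicate plates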
# Reading the numbers: mean z-score and z-score: higher = stronger reporter signal, weaker E2 silencing
# Rule for the call: 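Mean z ≥ 2 together with z ≥ 2 in two or more of the three replicates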
# This is a random part of about 21,000 reagents. 497 of them (2.4%) count as active. 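Higher z means weaker E2 silencing; only reporter increases were scored, and knock-downs that hurt cell survival may mask genuine repressor factors.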 No sequences are given here.
Gene,PubChem SID,mean z-score,"z-score, replicate A","z-score, replicate B","z-score, replicate C",Outcome
MRFAP1 (Morf4 family associated protein 1),SID134319148,-0.86,-0.64,-0.93,-1,inactive
ADAMTS10 (ADAM metallopeptidase with thrombospondin type 1 motif 10),SID134311191,0.16,0.23,-0.05,0.31,inactive
KCNK5 (potassium two pore domain channel subfamily K member 5),SID134311682,-1.34,-1.28,-1.37,-1.36,inactive
LINC02209 (long independently transcribed non-coding RNA 2209),SID134327989,-0.88,-0.61,-1.01,-1.03,inactive
MPHOSPH10P1 (MPHOSPH10 pseudogene 1),SID134328658,0.6,0.71,0.46,0.63,inactive
HSD17B13 (hydroxysteroid 17-beta dehydrogenase 13),SID134322375,2.73,3.03,3.06,2.1,active
ABCA9 (ATP binding cassette subfamily A member 9),SID134313401,-0.85,-0.62,-1.01,-0.93,inactive
H4C11 (H4 clustered histone 11),SID134315796,-0.01,0.19,-0.22,-0.01,inactive
PDPR2P,SID134325479,-1.11,-1,-0.93,-1.41,inactive
"ZNF767P (zinc finger family member 767, pseudogene)",SID134318655,0.14,0.27,0.35,-0.21,inactive
TOMM22P5 (TOMM22 pseudogene 5),SID134328171,-0.2,-0.08,-0.25,-0.25,inactive
CUX2 (cut like homeobox 2),SID134326745,-0.08,-0.48,0.07,0.16,inactive
AMIGO2 (adhesion molecule with Ig like domain 2),SID134322545,0.68,0.81,0.98,0.23,inactive
EEF1AKMT2 (EEF1A lysine methyltransferase 2),SID134330000,0.89,1.06,1.03,0.58,inactive
LOC401155 (retired record),SID134327421,0.29,0.38,0,0.49,inactive
SERPINB8 (serpin family B member 8),SID134323227,0.74,0.76,0.36,1.1,inactive
DACT2 (dishevelled binding antagonist of beta catenin 2),SID134327659,2.03,1.56,1.58,2.96,inactive
PIK3C2A,SID56479134,0.13,0.11,0.15,0.13,inactive
PHIP (PHIP subunit of CUL4-Ring ligase complex),SID134323093,-0.72,-0.63,-0.81,-0.72,inactive
LOC402103 (retired record),SID134327234,-0.68,-0.46,-1.06,-0.53,inactive
KDM4C (lysine demethylase 4C),SID134310370,1.3,1.44,1.17,1.28,inactive
CLRN3 (clarin 3),SID134320097,0.48,0.14,0.79,0.5,inactive
TMEM202 (transmembrane protein 202),SID134325350,0.29,0.47,0.09,0.32,inactive
LOC389345 (retired record),SID134327515,1.7,1.64,1.43,2.04,inactive
GNL3LP1 (G protein nucleolar 3 like pseudogene 1),SID134318675,-0.28,-0.39,-0.4,-0.06,inactive
EHBP1L1 (EH domain binding protein 1 like 1),SID134326603,-4.93,-4.84,-5.34,-4.62,inactive
MRPL15 (mitochondrial ribosomal protein L15),SID134317292,-0.96,-1.14,-0.8,-0.94,inactive
MATK (megakaryocyte-associated tyrosine kinase),SID56478532,0.32,0.5,0.09,0.38,inactive
CCNG1 (cyclin G1),SID56478577,-0.09,-0.13,-0.22,0.08,inactive
GFOD2 (Gfo/Idh/MocA-like oxidoreductase domain containing 2),SID134320788,-0.49,-0.47,-0.66,-0.36,inactive
RPGR (retinitis pigmentosa GTPase regulator),SID134323153,-0.49,-0.33,-0.48,-0.65,inactive
PRSS48 (serine protease 48),SID134323197,-1.04,-1.28,-0.95,-0.88,inactive
PRSS8 (serine protease 8),SID134310032,0.17,0.2,0.2,0.1,inactive
MMP1 (matrix metallopeptidase 1),SID134311376,0.85,1.04,0.97,0.55,inactive
ZBTB22 (zinc finger and BTB domain containing 22),SID134319841,1.19,0.93,1.33,1.33,inactive
JHY (junctional cadherin complex regulator),SID134318608,-0.54,-0.04,-0.88,-0.7,inactive
CCDC28B (coiled-coil domain containing 28B),SID134318486,-0.34,-0.44,-0.25,-0.32,inactive
FAM170B (family with sequence similarity 170 member B),SID134328148,1.04,1.08,1.07,0.97,inactive
CCDC90B (coiled-coil domain containing 90B),SID134320751,0.15,-0.36,-0.07,0.89,inactive
ABCA7 (ATP binding cassette subfamily A member 7),SID134314099,-0.49,-0.29,-0.81,-0.37,inactive
SYT12 (synaptotagmin 12),SID134322337,0.58,0.59,0.5,0.66,inactive
ABI3BP (ABI family member 3 binding protein),SID134323255,0.38,0.2,0.34,0.59,inactive
CLEC4D (C-type lectin domain family 4 member D),SID134324961,0.46,0.65,0.36,0.37,inactive
CCDC144A (coiled-coil domain containing 144A),SID134325585,0.58,0.66,0.69,0.39,inactive
LINC02864 (long independently transcribed non-coding RNA 2864),SID134328879,1.9,2.15,1.62,1.92,inactive
MICU1 (mitochondrial calcium uptake 1),SID134316980,-0.81,-0.91,-0.88,-0.64,inactive
SALL2 (spalt like transcription factor 2),SID134326797,0.51,0.19,0.69,0.65,inactive
CADM3 (cell adhesion molecule 3),SID134319883,0.53,0.69,0.94,-0.05,inactive
C6orf62 (chromosome 6 open reading frame 62),SID134319734,0.35,0.28,0.2,0.59,inactive
POM121C (POM121 transmembrane nucleoporin C),SID134327784,-0.27,-0.39,-0.37,-0.05,inactive
POM121C (POM121 transmembrane nucleoporin C),SID134329298,-0.45,-0.43,-0.54,-0.38,inactive
IDH2 (isocitrate dehydrogenase (NADP(+)) 2),SID134310230,0.11,0.42,-0.18,0.1,inactive
LOC389654 (retired record),SID134327946,2.14,1.91,2.34,2.18,active
UBE2W (ubiquitin conjugating enzyme E2 W),SID134314372,0.42,0.31,0.45,0.5,inactive
STXBP6 (syntaxin binding protein 6),SID134320750,0.89,0.75,0.68,1.25,inactive
LOC100129603,SID134327734,-0.12,-0.17,0.05,-0.24,inactive
LOC100129603,SID134327829,-0.02,-0.17,0,0.12,inactive
LRRC47 (leucine rich repeat containing 47),SID134315216,-0.69,-0.98,-0.79,-0.29,inactive
ATP4B (ATPase H+/K+ transporting subunit beta),SID134313948,0.04,-0.07,0.32,-0.13,inactive
CPT2 (carnitine palmitoyltransferase 2),SID134313441,0.4,-0.07,0.41,0.86,inactive
LINC00927 (long independently transcribed non-coding RNA 927),SID134328567,0.13,-0.07,0.19,0.26,inactive
TIRAP (TIR domain containing adaptor protein),SID134310586,-2.03,-1.79,-2.23,-2.08,inactive
TEKT2 (tektin 2),SID134316794,0.43,0.26,0.29,0.75,inactive
NDUFB2 (NADH:ubiquinone oxidoreductase subunit B2),SID134323009,-0.56,-0.47,-0.46,-0.75,inactive
FHL5 (four and a half LIM domains 5),SID134312033,0.82,1.04,0.88,0.54,inactive
C19orf25 (chromosome 19 open reading frame 25),SID134320688,0.7,0.34,1.08,0.68,inactive
PDE2A (phosphodiesterase 2A),SID134312688,-0.42,-0.52,-0.48,-0.26,inactive
SLC43A3,SID134318022,-0.73,-0.62,-0.64,-0.92,inactive
SF3B1 (splicing factor 3b subunit 1),SID134323804,-4.29,-4.21,-4.6,-4.06,inactive
"RNPC3 (RNA binding region (RNP1, RRM) containing 3)",SID134325129,0.92,0.92,1.12,0.72,inactive
ABCA1 (ATP binding cassette subfamily A member 1),SID134310282,-0.29,-0.16,-0.19,-0.53,inactive
EMILIN2 (elastin microfibril interfacer 2),SID134318878,0.86,0.93,0.74,0.92,inactive
FKBP3 (FKBP prolyl isomerase 3),SID134314299,1.44,2.31,0.95,1.07,inactive

3 entries from above, sorted by “z-score, replicate B”, high to low.
Gene,PubChem SID,mean z-score,"z-score, replicate A","z-score, replicate B","z-score, replicate C",Outcome
C19orf25 (chromosome 19 open reading frame 25),SID134320688,0.7,0.34,1.08,0.68,inactive
FHL5 (four and a half LIM domains 5),SID134312033,0.82,1.04,0.88,0.54,inactive
NDUFB2 (NADH:ubiquinone oxidoreductase subunit B2),SID134323009,-0.56,-0.47,-0.46,-0.75,inactive
